Results of unrelated studies side by side (data: NIAID ChemDB).

Common to all: toxicity to cultured cells; cells: HEP-2; endpoint: CC50

CCn: concentration that lowers growth or viability of the cells by n%. Rows are shuffled and stem from different studies.

compound | value
CC(C)CCn1c(Cn2c(=O)n(CCCCCN=[N+]=[N-])c3ccccc32)nc2ccccc21 | 90 µM
O=c1c(-c2ccc(O)cc2)coc2cc(O)ccc12 | 2.65 µg/mL
CSc1nsc(-c2ccccc2)c1C(=O)O | 500 µg/mL
C/C=C1\[C@H](OC2O[C@H](CO)[C@@H](O)[C@H](O)[C@H]2O)OC=C(C(=O)OC)[C@H]1CC(=O)OC | 125 µM
CCOc1ccc2ccccc2c1C(=O)NC1N=C(c2ccccc2)c2ccccc2NC1=O | 8.2 µM
CN(C)CCn1c(Cn2c(=O)n(CCN(C)C)c3ccccc32)nc2ccccc21 | 10 µM
CCOC(=O)CSc1nsc(-c2ccccc2)c1C#N | 200 µg/mL
O=C(Nc1cccc(F)c1)NC1N=C(c2ccccc2)c2ccccc2NC1=O | 6.1 µM
N#Cc1c(SCCCBr)nsc1-c1ccccc1 | 25 µg/mL
CCC1[C@H](OC2O[C@H](CO)[C@@H](O)[C@H](O)[C@H]2O)OC=C(C(=O)O)[C@H]1CC(=O)OCCc1ccc(O)cc1 | 250 µM
CCCSc1nsc(-c2ccccc2)c1C(=O)OC | 50 µg/mL
COc1ccccc1C(=O)NC1N=C(c2ccccc2)c2ccc(C)cc2NC1=O | 3 µM
N#Cc1c(N2CCCC2)nsc1-c1ccccc1 | 7 µg/mL
COc1ccc(C(=O)NC2N=C(c3cccc(Cl)c3)c3ccccc3NC2=O)cc1 | 4 µM
N#Cc1c(SCCCCBr)nsc1-c1ccccc1 | 25 µg/mL
COc1cccc(C2(c3ccccc3)NC(NC(=O)C3CCNCC3)C(=O)Nc3ccccc32)c1 | 9 µM
CC(C)CCn1c(Cn2c(=O)n(CC(=N)N=[N+]=[N-])c3ccccc32)nc2ccccc21 | >210 µM
COC(=O)c1c(SC)nsc1-c1ccccc1 | 100 µg/mL
O=C(O)c1cccc(Cn2c(=O)n(Cc3nc4ccccc4n3CCCn3cnnn3)c3ccccc32)c1 | >194 µM
O=C(NC1N=C(c2ccccc2)c2ccccc2NC1=O)c1cccc2cc[nH]c12 | 8.4 µM
C/C=C1/[C@H](O[C@@H]2O[C@H](CO)[C@@H](O)[C@H](O)[C@H]2O)OC=C(C(=O)OC)[C@H]1CC(=O)OCCc1ccc(O)c(O)c1 | 562.5 µM

3 of the rows above, restated:

compound | value
CN(C)CCn1c(Cn2c(=O)n(CCN(C)C)c3ccccc32)nc2ccccc21 | 10 µM
COc1ccccc1C(=O)NC1N=C(c2ccccc2)c2ccc(C)cc2NC1=O | 3 µM
CCOc1ccc2ccccc2c1C(=O)NC1N=C(c2ccccc2)c2ccccc2NC1=O | 8.2 µM